Laboratory results: BindingDB's records for 6471073

The chains behind the UniProt entries cited, without tags or fusion partners. Residues count along the entry.
UniProt O42275, 24-633 limits assumed: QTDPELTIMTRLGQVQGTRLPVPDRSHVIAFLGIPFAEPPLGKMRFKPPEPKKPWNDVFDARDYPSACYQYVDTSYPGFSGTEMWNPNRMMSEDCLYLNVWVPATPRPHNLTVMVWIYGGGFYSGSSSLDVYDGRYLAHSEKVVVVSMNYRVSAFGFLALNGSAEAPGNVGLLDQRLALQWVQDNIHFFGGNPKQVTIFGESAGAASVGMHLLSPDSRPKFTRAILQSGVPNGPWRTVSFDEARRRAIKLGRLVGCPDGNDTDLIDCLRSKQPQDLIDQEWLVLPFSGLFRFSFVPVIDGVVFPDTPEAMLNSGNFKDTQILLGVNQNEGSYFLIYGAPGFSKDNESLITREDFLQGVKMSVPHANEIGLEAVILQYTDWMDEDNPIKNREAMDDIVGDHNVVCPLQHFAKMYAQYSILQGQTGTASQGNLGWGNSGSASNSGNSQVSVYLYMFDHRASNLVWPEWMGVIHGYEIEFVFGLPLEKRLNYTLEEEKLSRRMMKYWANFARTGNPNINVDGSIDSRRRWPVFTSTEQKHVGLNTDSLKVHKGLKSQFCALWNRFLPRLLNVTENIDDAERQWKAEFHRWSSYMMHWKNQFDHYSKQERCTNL

Molecular target: Acetylcholinesterase (Electrophorus electricus, UniProt O42275)
Experiment: Concentration at 2 uM that inhibits 50%of acetylcholinesterase activity evaluated in vitro at a pH of 8 in the presence of 7.5x10E-4 acetylthiocholine
Settings: pH 8

## Cc1nsc(CN=O)n1
  IC50: > 1000 µM
